Protein sequences, listed by entry. Tags and fused reporters are not part of them. Residues count along the entry.
UniProt P04584, 514-612 limits assumed: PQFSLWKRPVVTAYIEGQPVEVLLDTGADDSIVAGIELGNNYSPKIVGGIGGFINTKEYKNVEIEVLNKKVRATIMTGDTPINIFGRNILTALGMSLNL

In US5364931A (Bayer Aktiengesellschaft, priority 1990, dated 1994):

Columns and labels:
[1] = target: HIV protease (Human immunodeficiency virus type 1 group M subtype B, UniProt P04585); experiment: HIV-specific protease enzyme test (RP-HPLC), compounds of formula (I)
Method: (§1) The results for the examples listed below were determined by the HIV test system described in the following literature reports [cf. Hansen, J., Billich, S., Schulze, T. Sukrow, S. and Molling, K. (1988), EMBO Journal, Vol. 7, No. 6, pages 1785-1791]: purified HIV protease was incubated with synthetic peptide which imitates a cleavage site in the Gag precursor protein and represents an in vivo cleavage site of the HIV protease. The resulting cleavage products of the synthetic peptide were analysed by means of reverse phase high performance liquid chromatography (RP-HPLC). The IC50 values given relate to the substance concentration which causes a 50% inhibition of protease activity under the abovementioned test conditions.

[2] = target: HIV-1 protease (Human immunodeficiency virus type 1 group M subtype B, UniProt P04585); experiment: HIV-specific protease enzyme test (RP-HPLC), HIV-1; assay type: biochemical; conditions: read-out: IC50 (RP-HPLC) HIV-1, compounds of general formula (VIa)
Method: as §1

[3] = target: HIV-2 protease (Human immunodeficiency virus type 2 subtype A, UniProt P04584); experiment: HIV-specific protease enzyme test (RP-HPLC), HIV-2; conditions: read-out: IC50 (RP-HPLC) HIV-2, compounds of general formula (VIa)
Method: as §1

[4] = system: HIV; experiment: HIV infection in cell culture (syncytia formation in infected PBLs); assay type: cell-based; conditions: read-out: IC50 (50% suppression of virus-induced syncytia); HIV-infected normal human blood lymphocytes (PBLs), evaluated day 3 to 6 after infection
Method: The HIV test was carried out with slight modifications by the method of Pauwels et al. (Journal of Virological Methods 20 (1988) 309-321).
Normal human blood lymphocytes (PBLs) were concentrated by means of Ficoll-Hypaque and stimulated with phytohaemagglutinin (90 μg/ml) and interleukin 2 (40 U/ml) in RPMI 1640 and 20% foetal calf serum. For infection with the infectious HIV, PBLs were pelleted and the cell pellet was then suspended in 1 ml of HIV virus adsorption solution and incubated at 37° C. for 1 hour.
The virus adsorption solution was centrifuged and the infected cell pellet was taken up in growth medium such that a concentration of 1×10^5 cells per ml was established. The cells infected in this way were pipetted into the wells of 96-well microtitre plates at a concentration of 1×10^4 cells/well.
The first vertical row of the microtitre plate contained only growth medium and cells which had not been infected, but otherwise treated exactly as described above (cell control). The second vertical row of the microtitre plate contained only HIV-infected cells (virus control) in growth medium. The other wells contained the compounds according to the invention at different concentrations, starting from the wells of the 3rd vertical row of the microtitre plate, from which the test compounds were diluted 10 times in two-fold steps.
The test batches were incubated at 37° C. until, in the untreated virus control, the syncytia formation typical for HIV occurred (between day 3 and 6 after infection), which was then evaluated microscopically.
The IC50 values were determined as the concentration of the treated and infected cells at which 50% (about 10 syncytia) of the virus-induced syncytia were suppressed by treatment with the compound according to the invention.

[5] = read-out: IC50 (RP-HPLC), purified HIV protease, synthetic Gag cleavage-site peptide, compounds of general formula (I), tested form: 2HCl
[6] = read-out: IC50 (RP-HPLC), purified HIV protease, synthetic Gag cleavage-site peptide, compounds of general formula (I)

Row | Structure (SMILES) | IC50 [1, 6] | IC50 [2] | further results
1 | CCOP(=O)(OCC)C1CCCN1C[C@H](O)[C@H](Cc1ccccc1)NC(=O)[C@@H](NC(=O)[C@@H](N)Cc1ccccc1)C(C)C (single isomer, unassigned) [10] | – | – | IC50 [1, 5]: 50 nM
2 | CCOP(=O)(OCC)C1CCCN1C[C@H](O)[C@H](Cc1ccccc1)NC(=O)[C@@H](NC(=O)c1ccc2ccccc2n1)C(C)C (stereo partly drawn) | 500 nM | – | –
3 | CC(C)[C@H](NC(=O)[C@H](Cc1cccc2ccccc12)CS(=O)(=O)C(C)(C)C)C(=O)N[C@@H](CC1CCCCC1)C1CO1 (stereo partly drawn) | – | 1 nM | –
4 | CCOP(=O)(OCC)C1CCCN1C[C@H](O)[C@H](Cc1ccccc1)NC(=O)[C@@H](NC(=O)[C@H](Cc1cccc2ccccc12)CS(=O)(=O)C(C)(C)C)C(C)C (single isomer, unassigned) [28 (non-polar)] | 1000 nM | – | –
5 | CC(C)[C@H](NC(=O)[C@H](Cc1ccccc1)NC(=O)CC(C)(C)C)C(=O)N[C@@H](CC1CCCCC1)C1CO1 (stereo partly drawn) | – | 10 nM | IC50 [3]: 1000 nM
6 | CC(C)[C@H](NC(=O)[C@H](Cc1ccccc1)CS(=O)(=O)C(C)(C)C)C(=O)N[C@@H](CC1CCCCC1)C1CO1 (stereo partly drawn) | – | 10 nM | IC50 [3]: 1 nM
7 | CCOP(=O)(OCC)C1CCCN1C[C@H](O)[C@H](Cc1ccccc1)NC(=O)[C@@H](NC(=O)[C@@H](N)Cc1ccccc1)C(C)C (single isomer, unassigned) [11] | – | – | IC50 [1, 5]: 500 nM
8 | CC(C)[C@H](NC(=O)[C@H](CC1CCCCC1)NC(=O)OC(C)(C)C)C(=O)N[C@@H](Cc1ccccc1)C1CO1 (stereo partly drawn) | – | 1 nM | IC50 [4]: 10000 nM
9 | CC(C)[C@H](NC(=O)[C@H](Cc1ccccc1)NC(=O)OCc1ccccc1)C(=O)N[C@@H](CC1CCCCC1)C1CO1 (single isomer, unassigned) [65] | – | 1000 nM | –
10 | CC(C)[C@H](NC(=O)[C@H](Cc1ccccc1)NC(=O)OC(C)(C)C)C(=O)N[C@@H](Cc1ccccc1)C1CO1 (stereo partly drawn) | – | 10 nM | –
11 | CCOP(=O)(OCC)C1CCCN1C[C@H](O)[C@H](Cc1ccccc1)NC(=O)[C@@H](NC(=O)[C@H](CC1CCCCC1)NC(=O)OC(C)(C)C)C(C)C (stereo partly drawn) | 100 nM | – | –
12 | CC(C)[C@H](NC(=O)[C@H](Cc1cccc2ccccc12)CS(=O)(=O)C(C)(C)C)C(=O)N[C@@H](Cc1ccccc1)C1CO1 (stereo partly drawn) | – | 1 nM | –
13 | CCOP(=O)(OCC)C1CCCN1C[C@H](O)[C@H](CC1CCCCC1)NC(=O)[C@@H](NC(=O)[C@H](Cc1cccc2ccccc12)CS(=O)(=O)C(C)(C)C)C(C)C (single isomer, unassigned) | < 10 nM | – | IC50 [4]: 9500 nM
14 | CC(C)[C@H](NC(=O)c1ccc2ccccc2n1)C(=O)N[C@@H](Cc1ccccc1)C1CO1 (single isomer, unassigned) [56] | – | 10 nM | –
15 | CC(C)[C@H](NC(=O)[C@H](Cc1ccccc1)CS(=O)(=O)C(C)(C)C)C(=O)N[C@@H](Cc1ccccc1)C1CO1 (stereo partly drawn) | – | 10 nM | IC50 [3]: 1 nM
16 | CC(C)[C@H](NC(=O)[C@H](Cc1ccccc1)NS(C)(=O)=O)C(=O)N[C@@H](CC1CCCCC1)C1CO1 (stereo partly drawn) | – | 10 nM | –
17 | CC(C)[C@H](NC(=O)[C@H](Cc1ccccc1)NC(=O)OCc1ccccc1)C(=O)N[C@@H](Cc1ccccc1)C1CO1 (stereo partly drawn) | – | 0.1 nM | –
18 | CCOP(=O)(OCC)C1CCCN1C[C@H](O)[C@H](Cc1ccccc1)NC(=O)[C@@H](NC(=O)[C@H](Cc1cccc2ccccc12)CS(=O)(=O)C(C)(C)C)C(C)C (single isomer, unassigned) [29 (polar)] | 1 nM | – | IC50 [4]: 4700 nM
19 | CCOP(=O)(OCC)C1CCCN1C[C@H](O)[C@H](Cc1ccccc1)NC(=O)[C@@H](NC(=O)[C@H](Cc1ccccc1)NC(=O)[C@H](CO)NC(=O)OC(C)(C)C)C(C)C (stereo partly drawn) | 100 nM | – | –
20 | CC(C)[C@H](NC(=O)[C@H](Cc1ccccc1)NC(=O)OCc1ccccc1)C(=O)N[C@@H](CC1CCCCC1)C1CO1 (single isomer, unassigned) [66] | – | 100 nM | –
21 | CCOP(=O)(OCC)C1CCCN1C[C@H](O)[C@H](Cc1ccccc1)NC(=O)[C@@H](NC(=O)c1cc2ccccc2[nH]1)C(C)C (stereo partly drawn) | 500 nM | – | –
22 | CC(C)[C@H](NC(=O)[C@H](CC1CCCCC1)NC(=O)OC(C)(C)C)C(=O)N[C@@H](CC1CCCCC1)C1CS1 (stereo partly drawn) | – | 100 nM | –
23 | CCOP(=O)(OCC)C1CCCN1C[C@H](O)[C@H](CC1CCCCC1)NC(=O)[C@H](CC(N)=O)NC(=O)[C@H](Cc1ccccc1)NC(=O)[C@H](CO)NC(=O)OC(C)(C)C (stereo partly drawn) | 1000 nM | – | –
24 | CCOP(=O)(OCC)C1CCCN1C[C@H](O)[C@H](Cc1ccccc1)NC(=O)[C@@H](NC(=O)[C@H](Cc1ccccc1)NC(=O)OC(C)(C)C)C(C)C (single isomer, unassigned) [17] | 10 nM | – | –
25 | CC(C)[C@H](NC(=O)[C@H](Cc1ccccc1)NS(C)(=O)=O)C(=O)N[C@@H](Cc1ccccc1)C1CO1 (stereo partly drawn) | – | 10 nM | IC50 [3]: 10 nM
26 | CCOP(=O)(OCC)C1CCCN1C[C@H](O)[C@H](Cc1ccccc1)NC(=O)[C@@H](NC(=O)[C@H](Cc1ccccc1)NC(=O)OC(C)(C)C)C(C)C (single isomer, unassigned) [18] | 1 nM | – | –

Where two headings read alike, the source gives them in different places.
